In paper PMC13572408:

Assays:
[1] = biological target: T1, His6-AstR (Acinetobacter baumannii ATCC 17978 (17978VU)) (UniProt A0A7U3Y4V5); experiment: EMSA supershift; conditions: anti-His antibody; 20 mM Tris-HCl, 2.5 mM MgCl2, 0.45 mM EDTA, 50 mM NaCl, 10% glycerol, 5 mM DTT, pH 7.5, room temperature 30 min; 5 nM DNA; 7.5% TGX gel in TBE; recombinant protein; protein details: N-terminal His6 (pET15b); label: 5'-Cy5.5 on reverse primer; probe letters rebuilt from the primers and the genome
T1 sequence (looked up, limits assumed): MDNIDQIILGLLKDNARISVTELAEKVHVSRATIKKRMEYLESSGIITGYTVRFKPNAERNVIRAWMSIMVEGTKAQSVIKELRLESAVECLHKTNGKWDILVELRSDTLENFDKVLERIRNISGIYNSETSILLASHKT

[2] = biological target: T1, His6-AstR (Acinetobacter baumannii ATCC 17978 (17978VU)); experiment: EMSA; conditions: 20 mM Tris-HCl, 2.5 mM MgCl2, 0.45 mM EDTA, 50 mM NaCl, 10% glycerol, 5 mM DTT, pH 7.5, room temperature 30 min, 5 nM DNA, 7.5% TGX gel in TBE, recombinant protein, protein details: N-terminal His6 (pET15b), label: 5'-Cy5.5 on reverse primer, probe letters rebuilt from the primers and the genome

Measured: binding result

CTTATCTAGTCCATTAAATTGAATTATTCGGGTTAACTGATGACCTTATTATTCAAAATCAAATTGATTCACAAAATTTGTAATTCAGTCAAAAATGAATTATTTTTTACCAATCTGATAATTGACAATTACATT (double strand) [astNp 135 bp]
binds: [1] | [2]; 5 mM ornithine + succinate, binding not dramatically altered | [2]; 0.5-10 uM protein, no ligand

Construct, isoform or probe ends are uncertain for at least one entry. Protein sequences can lack the tags named with them.
